The values that follow come from patent publication US20260234220A1 (OSPEDALE SAN RAFFAELE S R L, published 2026).

This test deals with S protein of SARS-CoV-2 Omicron on pseudotyped particles (SARS-CoV-2, UniProt P0DTC2 14-1273). The test can be described thus: cell-based or functional assay.

B1: IgG BU.7 (antibody, V domains shown)
VH: LEWGPGLVKPSETLSLTCTVSGGSISSINYYWVWIRQPPGKGLEWIGNINYSGTTNYNPSLKSRVTISVDTSKNQFSLKLSSVTAADTAVYYCARQTYYYDRRGYYRPEPIEHWGQGTLVTVSS
VL: ELVMTQSPSFLSASVGDRVTITCRASQDVRSFLHWYQQRPGKAPKLLIYAASMVSSEVPSRFSGSGSETDFTLTIDGLQPEDVATYFCQQTYDTPLTFGGGTAVDIK
Regarding B1, the “neutralizing activity expressed as IC50 µg/ml (pseudovirus, luciferase)” value is 1.8 µg/mL.

B2: IgG BU.54 (antibody, V domains shown)
VH: LEWGPGLVKASQTLSLTCTVSGGSISSRNFYWSWIRQPGGKGLEWIGRIYTSGSTNYNPSLKSRVTISLDTSKSQFSLKLSSVTAADTAVYYCARGTFYYDRSGNGRLDPLDYWGQGTLVTVS
VL: ELVMTQSPSSLSASVGDRVTITCQASQDISNYLNWYQQKPGKAPKLLIYDASNLETGVPSRFSGSGFGTHFTLTISSLQPEDFATYYCQQHDNLVTFGGGTKVEIK
For the molecule B2, the “neutralizing activity expressed as IC50 µg/ml (pseudovirus, luciferase)” value was 0.5 µg/mL.
